This note sets out measurements from patent publication US8088729B2 (priority 2005, dated 2012).

≈ marks a conversion by molar mass, not a printed value.

Test [1] relates to influenza A (H5N1) hybrid virus. Nature of the test: H5N1 CPE inhibition test, visual (microscopic), MDCK cells. As to conditions: Visual (CPE) Assay, 72 h.
For test [2] the test system is unchanged. Nature of the test: H5N1 neutral red (NR) dye uptake assay, MDCK cells.

Usually EC50 stands for the concentration giving half of the maximal effect. High values mean a need for much substance, low ones an effect from little substance. On to `NC(=O)c1ncn([C@@H]2O[C@H](CO)[C@@H](O)[C@H]2O)n1` [Ribavirin, reference compound], for which the EC50 in test [1] and in test [2] was 1.8 µg/mL (≈ 7.37 µM) in each case.
